Assay results taken from patent publication US10184933B2, “Compositions, systems and methods for gene expression noise drug screening and uses thereof” (priority 2013, dated 2019).

What was measured:
[1] = tested on: latent HIV-1 in JLat 8.6 cells; assay: HIV-1 latency reactivation in JLat 8.6 cells; assay type: cell-based; details: with one or more of PMA, prostratin, TNFα, and bryostatin; FIG. 11
HIV-1 LTR promoter = details: Pharmakon 1600 library, 10 uM, 24 hours, FIG. 10

In the case of sodium monofluorophosphate, the “synergy in reactivation of HIV-1 latency” value [1] is reported as “synergized” and the “identified as variability enhancer (VE) in noise screen” value (HIV-1 LTR promoter) is reported as “variability enhancers”.
